Reference: patent US4957926A, “Method of treating herpesviruses” (priority 1988, dated 1990)

Test system: Cytomegalovirus (Viral Strain Towne)
Test: Cytomegalovirus Plaque Reduction Assay
Format: cell-based
Details: CMV; data of FIG. 1, % virus control vs log10 drug (mM)
Excerpt: For testing the N-Bu-DNJ against HSV, the HSV Type II strain HG52 described by Timbury, J. Gen. Virol. 13, 373-376 (1971), and Davis et al., Analyst 110, 605-609 (1985), is useful. For testing against CMV, the prototype CMV ADl69 strain described, for example, by Tyms et al., J. Gen. Virol. 68, 1563-1573 (1987), and in U.S. Pat. No. 4,743,560, is useful. Another useful CMV strain is the Towne strain described by Glazer et al., Ann. Inter. Med. 91, 676-683 (1979).
Human embryo fibroblast cells (HEF) were grown in Eagles minimal essential medium supplemented with 7% fetal calf serum (FCS), 9 mM sodium bicarbonate and 7 mM HEPES buffer. In maintenance medium the supplements were adjusted to 2% FCS, 13 mM sodium bicarbonate and 14 mM HEPES. CMV, strain Towne, and HSV type II, strain […], were used in the following tests. CMV virus stocks were prepared and stored by technique as previously described by Tyms & Williamson, Nature 297, 690-691 […]. Herpes virus stocks were prepared and stored by technique as previously described by Davis et al., Analyst 110, 605-609 (1985). The HEF were human embryonic lung fibroblasts, strain MRC-5, as described by Tyms and Williamson, Nature 297, 690-691 (1982).
For plaque reduction assays, 24-well culture trays were seeded with HEF cells. Confluent monolayers were infected with virus to give initially about 100 plaque-forming-units (p.f.u.) per well. After a one hour absorption period the inocula were replaced by l.5ml of a maintenance medium incorporating 0.5% low gelling temperature agarose, supplemented with various concentrations of test compound. For tests with CMV, infected monolayers were fixed with 5% formalin in phosphate buffered saline (PBS) at 6-8 days post-infection and stained with 0.3% methylene blue after removal of the overlay; whereas, tests with HSV were conducted in the same manner but with the monolayer fixing at 2 days post infection. The mean plaque number was calculated from a multiple series of counts (e.g., duplicate, triplicate or quadruplicate), converted to a percentage of untreated controls and values plotted against the log10 drug concentration. The 50% effective dose (ED50) was determined from best line fits for the curves.
In a similar manner, the Effective Dosage Values (ED50) were determined from the curves of FIG. 1. A least squares fit of the data of FIG. 1 to an equation of the form: y=mx+b gave the following values: […]
From these values, a 50% effective dose (ED50) was calculated to give the following values: […]

| SMILES | b (least squares fit y=mx+b) | m (least squares fit y=mx+b) |
| --- | --- | --- |
| CCCCN1C[C@H](O)[C@@H](O)[C@H](O)[C@H]1CO [N-Bu-DNJ, Nbutyl deoxynojirimycin] | 31.7 | -75.95 |
| O[C@H]1[C@H](O)[C@@H](O)CN2CC[C@H](O)[C@H]12 [Castanospermine, castanospermine, reference compound] | 32.9 | -77.08 |
